The experiment has as its target HLA-A0201 (Homo sapiens, UniProt P04439, D140Y/D185E/D98H/E176V/E277Q/G131W/G231S/I119V/I121R/I166T/I218V/L300P/L318F/N151K/N90K/P208A/P217A/Q86G/Q94H/R138H/R169H/T345S). Format: binding.

As a reminder, the % inhibition is the share of the control response that was lost under treatment. Read a low % inhibition as a response near the control. With [3-PYRA]LCTLVAML, the “% inhibition at T = 4 H (FP 4 h)” value amounted to 75% and the “% inhibition at T = 24 H (FP 24 h)” value was 72%.

(Values after patent US20140004137A1, “IMMUNE RESTRICTED PEPTIDES WITH INCREASED EFFICACY” (priority 2010, published 2014).)
